# The entries are a selection whose mix differs from that of the whole data set. Inconclusive results are not listed. Active and inactive are the calls of the source. Rule as the data show it: active = activity change below about -60%; inconclusive = no clear call, values can overlap the other calls; inactive = above about -39%.
# Experiment: qHTS Assay for inhibitors of the human cytomegalovirus (HCMV)
# Details: HFF cells, HCMV-luciferase reporter, 72 h; at 57.5 µM; active compounds read low
# From the text: NCGC Assay Overview: Infection with human cytomegalovirus (HCMV) continues to pose significant threats for pregnant women and immunocompromised hosts. HCMV causes serious morbidity and mortality in transplant recipients, and congenital HCMV is the leading infectious cause of mental retardation and deafness in children. In the 1990s, the annual costs associated with the disease burden of congenital CMV were estimated at around $2 billion. A HCMV vaccine is not available yet and HCMV therapies result in intolerable side effects and emergence of drug resistant viruses. […] Towards this goal we have developed and characterized a luciferase HCMV reporter that was initially used in 96 well plates and then optimized to 1536-well plates for utilization in screening of the MLSMR collection, the NGCG diversity collection and the NCGC Pharmaceutical Collection of approved and investigational drugs.
# NCGC Assay Protocol Summary:
# This is a cell-based assay for HCMV inhibition in HFFs cells. The screening used 2 compound doses and the HCMV-luciferase at MOI of 1 PFU/cell. Cells were treated and infected with HCMV. At 72 h post infection cell lysates were collected and luciferase activity was determined using the Glomax-Multi + Detection System (Promega, Madison, WI). Data were normalized to the controls for basal activity (buffer only) and known HCMV inhibitors Salinmoycin. […]
# % is scaled to controls: 0 for no effect and ±100 for the full control effect.
row,SMILES,"activity change, negative = inhibition"
1,Cc1ccc(C)c(NP(C)(=O)Oc2ccccc2)c1 (stereo unspecified),inactive: 11.4%

# Source: PubChem BioAssay AID1259415 (National Center for Advancing Translational Sciences (NCATS), 2018)
